Experimental data reported in patent US10287311B2, “Modified fluorinated nucleoside analogues” (priority 2003, dated 2019).

Key:
HCV-WT 1b replicon = test: microbe, parasite or virus in culture; conditions: Hepatitis C virus
[1] = test system: 9-13 (subgenomic) replicon; test: microbe, parasite or virus in culture; conditions: Hepatitis C virus
[2] = test system: 21-5 (full-length) replicon; test: microbe, parasite or virus in culture; conditions: Hepatitis C virus
replicon HCV RNA = test: HCV replicon assay (clone not specified); conditions: for reduction in replicon HCV RNA up to 7 days: treatment with 5 and 25 μM, FIG. 1B

In the case of `C[C@@]1(O)[C@H](O)[C@@H](CO)O[C@H]1n1ccc(N)nc1=O` [2′-C-methylcytidine], the EC90 (HCV-WT 1b replicon) is reported as 21.9 ± 4.3 µM, the EC90 [1] is reported as 13 µM and the EC90 [2] is reported as 6.6 µM.

`C[C@@]1(O)[C@H](O)[C@@H](CO)O[C@H]1n1cnc2c(N)ncnc21` [2′-C-methyladenosine] was tested, and the EC90 (HCV-WT 1b replicon) was 2.1 ± 0.27 µM, the EC90 [1] was 0.7 µM and the EC90 [2] was 0.6 µM.

`C[C@@]1(F)[C@H](O)[C@@H](CO)O[C@H]1n1ccc(N)nc1=O` showed an EC90 (HCV-WT 1b replicon) of 4.6 ± 2 µM, an EC90 [1] of 4.6 ± 2.3 µM and an EC90 [2] of 1.6 ± 0.7 µM. The EC90 (replicon HCV RNA; Hepatitis C virus, read-out: average EC90 value, corrected for cellular toxicity, rRNA reduction subtracted from antiviral values) was ~2.5 µM, the “reduction in replicon HCV RNA up to 7 days” value (replicon HCV RNA) was “prolonged reduction” and the “reduction in replicon HCV RNA up to 7 days” value (replicon HCV RNA; listed as β-D-(2′R)-2′-deoxy-2′-fluoro-2′-C-methylcytidine) was “significantly reduced”.
